Compound potency records, mixed from different reports. Data source: NIAID ChemDB in PubChem.

Common to all: growth or infection tests; agent: Cryptococcus neoformans; measure: MIC

Conditions beyond the fields shown may differ between rows.

smiles,strain,result
COc1ccc(-c2c(C#N)c(OC)nc3c2CSc2ccccc2-3)cc1,Farwania,6 µg/mL
COc1ccc(NS(=O)(=O)c2ccc(N)cc2)nn1,IFM 49624,≥256 µg/mL
CCOc1ccc(/C=C2\CCc3ccccc3C2=O)cc1,93/V,25 µg/mL
OC(Cn1cncn1)(Cn1nnnc1CCN1CCN(c2ccccc2Cl)CC1)c1ccc(F)cc1F,LA314,8 µg/mL
OCc1c(-c2ccc3c(c2)OCO3)sc2ccccc12,Isolate 25,12.5 µg/mL
COc1cc(O)c2c(c1)C(=O)c1c(cc3c(c1O)-c1c(cc(C)c(C(=O)NCC(=O)O)c1O)[C@H](OC1OC(C)C(N(C)C)C(OC4OCC(O)C(O)C4O)C1O)[C@H]3O)C2=O,IAM 4514,1.6 µg/mL
C[C@H](n1nnc(CCN2CCN(Cc3ccccc3)CC2)n1)[C@](O)(Cn1cncn1)c1ccc(F)cc1F,LA314,>16 µg/mL
COc1ccc(/C=C2\COc3ccccc3C2=O)cc1OC,93/V,50 µg/mL
C[C@@H](n1cnc2cc(Cl)ccc2c1=O)[C@](O)(Cn1cncn1)c1ccc(F)cc1F,Isolate H99,0.0195 µg/mL
COc1ccc2c(c1)C1=C(CS2)C(c2ccc3c(c2)OCO3)C(C#N)=C(N)O1,Farwania,6 µg/mL
O[C@](Cn1cncn1)(Cn1cnc(/C=C/c2ccc(OCC(F)(F)C(F)F)cc2)n1)c1ccc(F)cc1F,TIMM0362,0.78 µg/mL
Cc1cc(NS(=O)(=O)c2ccc(N)cc2)no1,IFM 51976,32 µg/mL
O=C1/C(=C/c2ccc3ccccc3c2)CSc2ccc(Cl)cc21,Farwania,12.5 µg/mL
COc1ccc(C2Sc3ccccc3C2CO)c(O)c1,Farwania,25 µg/mL
COc1ccccc1C1C(C#N)=C(N)OC2=C1CSc1ccccc12,Farwania,12.5 µg/mL
CC[C@H]1/C=C(\C)[C@H](O)[C@H](C)C[C@H](OC)[C@H]2O[C@@](O)(C(=O)C(=O)N3CCCC[C@H]3C(=O)O[C@H](/C(C)=C/[C@@H]3CC[C@@H](O)[C@H](OC)C3)[C@H](C)[C@@H](O)CC1=O)[C@H](C)C[C@@H]2OC,C20,12.5 µg/mL
O=C1/C(=C/c2ccccc2[N+](=O)[O-])CCc2ccccc21,25,100 µg/mL
Nc1ccc(S(=O)(=O)Nc2ccnn2-c2ccccc2)cc1,IFM 49624,8 µg/mL
O=C1/C(=C/c2ccc(Cl)cc2)CCc2ccccc21,Farwania,6 µg/mL
COC1CC2CCC(C)C(O)(O2)C(=O)C(=O)N2CCCCC2C(=O)OC(C(C)CC2CCC(O)C(OC)C2)CC(=O)C(C)/C=C(\C)[C@@](O)(c2ccc(C)s2)C(OC)C(=O)C(C)CC(C)/C=C/C=C/C=C/1C,TOR1-1,>100 µg/mL
CCCCCOc1ccc(-c2cc(-c3ccc(C(=O)N[C@H]4C[C@@H](O)[C@@H](O)NC(=O)[C@@H]5[C@@H](O)[C@@H](C)CN5C(=O)[C@H]([C@H](O)CC(N)=O)NC(=O)[C@H]([C@H](O)[C@@H](O)c5ccc(O)c(OS(=O)(=O)O)c5)NC(=O)[C@@H]5C[C@@H](O)CN5C(=O)[C@H]([C@@H](C)O)NC4=O)cc3)no2)cc1,FMR 8393,64 µg/mL
COc1ccc(N2CCN(CCc3nnnn3[C@@H](C)[C@](O)(Cn3cncn3)c3ccc(F)cc3F)CC2)cc1,LA314,>16 µg/mL
COc1ccc(/C=C2\COc3ccccc3C2=O)cc1,Farwania,100 µg/mL
Cc1nnc(NS(=O)(=O)c2ccc(N)cc2)s1,IFM 49722,≥256 µg/mL
COc1cccc(C2Sc3ccccc3C2CO)c1O,Farwania,12.5 µg/mL
C[C@H](n1nnnc1CCN1CCN(c2ccccn2)CC1)[C@](O)(Cn1cncn1)c1ccc(F)cc1F,LA314,4 µg/mL
CN(C)c1ccc(C2Sc3ccccc3C2CO)cc1,Farwania,50 µg/mL
O=C1/C(=C/c2ccc(O)c(O)c2)CCc2ccccc21,25,100 µg/mL
CC(C(O)(Cn1cncn1)c1ccc(F)cc1F)S(C)(=O)=O,R715 (AZOLE-R),20 µM
CCCCOc1ccccc1N1CCN(CCc2nnnn2C(C)C(O)(Cn2cncn2)c2ccc(F)cc2F)CC1,LA314,4 µg/mL
N#CC1=C(c2ccccc2)C2=C(NC1O)c1ccccc1SC2,93/V,100 µg/mL
COC1CC2CCC(C)C(O)(O2)C(=O)C(=O)N2CCCCC2C(=O)OC(C(C)CC2CCC(O)C(OC)C2)CC(=O)C(C)/C=C(\C)C(O)C(OC)C(=O)C(C)C[C@](C)(N(O)C(=O)NN2CCCCC2)/C=C/C=C/C=C/1C,FRR1,>100 µg/mL
CCCCOc1ccccc1N1CCN(CCc2nnn(C(C)C(O)(Cn3cncn3)c3ccc(F)cc3F)n2)CC1,LA314,4 µg/mL
COc1nc2c(c(-c3ccc(C)cc3)c1C#N)CSc1ccccc1-2,25,1.5 µg/mL
C[C@H](n1nnc(CCN2CCN(c3ccc(Cl)cc3)CC2)n1)[C@](O)(Cn1cncn1)c1ccc(F)cc1F,LA314,8 µg/mL
O=C1/C(=C/c2ccc3ccccc3c2)CSc2ccccc21,25,12.5 µg/mL
COc1ccc(O)c(C2Sc3ccccc3C2CO)c1,Isolate 25,12.5 µg/mL
CC[C@@H]([C@H](C)O)n1ncn(-c2ccc(N3CCN(c4ccc(OC[C@@H]5CO[C@@](Cn6cncn6)(c6ccc(F)cc6F)C5)cc4)CC3)cc2)c1=O,DUMC140.92,0.125 µg/mL
N#CC1=C(N)OC2=C(CSc3ccc(Cl)cc32)C1c1ccccc1,25,12.5 µg/mL
COc1cc(/C=C2\COc3ccccc3C2=O)ccc1O,25,12.5 µg/mL
COc1ccc(C2C(C#N)=C(N)OC3=C2CSc2ccccc23)cc1,Farwania,50 µg/mL
C[C@@H](n1ncn(-c2ccc(OCC(F)(F)C(F)F)cc2)c1=O)[C@](O)(Cn1cncn1)c1ccc(F)cc1F,DUMC 114.96,0.0625 µg/mL

The first 5 rows once more:

smiles | strain | result
COc1ccc(-c2c(C#N)c(OC)nc3c2CSc2ccccc2-3)cc1 | Farwania | 6 µg/mL
COc1ccc(NS(=O)(=O)c2ccc(N)cc2)nn1 | IFM 49624 | ≥256 µg/mL
CCOc1ccc(/C=C2\CCc3ccccc3C2=O)cc1 | 93/V | 25 µg/mL
OC(Cn1cncn1)(Cn1nnnc1CCN1CCN(c2ccccc2Cl)CC1)c1ccc(F)cc1F | LA314 | 8 µg/mL
OCc1c(-c2ccc3c(c2)OCO3)sc2ccccc12 | Isolate 25 | 12.5 µg/mL